Compound potency records, mixed from different reports. Data source: NIAID ChemDB in PubChem.

All rows: growth or infection tests; species: Mycobacterium bovis

A number after MIC or MFC names an inhibition level or a share of isolates.

CCOC(=O)c1ccc(NC(=O)Nc2ccc3c(c2)C(C)=CC(C)(C)N3C)cc1 ; endpoint: MIC ; strain or isolate: BCG ; result: 20–40 µg/mL
Cc1cn(C/C=C\Cn2c(=O)n3c4c(cccc42)CC(N)C3)c(=O)[nH]c1=O ; endpoint: EC50 ; method: resazurin / absorbance ; strain or isolate: BCG Pasteur ; result: >160 µg/mL
COc1ccc2c(c1NC(=S)NC(=O)c1ccc([N+](=O)[O-])cc1)C(C)(C)COC2(C)C ; endpoint: MIC ; strain or isolate: BCG ; result: 20–40 µg/mL
O=c1[nH]c2c(O)cccc2c(O)c1-c1ccccc1 ; endpoint: MIC90 ; method: luminescence ; strain or isolate: AN5 lux ; result: 9.9 µM
CCCCCCCCOC1COc2nc([N+](=O)[O-])cn2C1 ; endpoint: MIC ; strain or isolate: rBCG-lux ; result: 2 µg/mL
CC1(C)CC(C)(C)c2cccc(NC(=S)Nc3ccc([N+](=O)[O-])cc3)c2O1 ; endpoint: MIC ; strain or isolate: BCG ; result: 20–40 µg/mL
COc1cc(OC)c(C(=O)CCc2ccccc2)c(OC)c1 ; endpoint: MIC ; method: resazurin ; strain or isolate: BCG ; result: >256 µM
Cc1cc2[nH]c(=O)c(-c3ccccc3)c(O)c2cc1C ; endpoint: MIC90 ; method: luminescence ; strain or isolate: AN5 lux ; result: 13.2 µM
Cc1cn(C/C=C\Cn2c(=O)n3c4c(cc(N)cc42)CCC3)c(=O)[nH]c1=O ; endpoint: EC50 ; method: resazurin / absorbance ; strain or isolate: BCG Pasteur ; result: >160 µg/mL
CCc1cc(C(N)=S)ccn1 ; endpoint: MIC ; strain or isolate: BCG (PMV261::KASA) ; result: 2 µg/mL
CC(=O)Nc1cc2c3c(c1)n(C/C=C\Cn1cc(C)c(=O)[nH]c1=O)c(=O)n3CCC2 ; endpoint: EC50 ; method: resazurin / absorbance ; strain or isolate: BCG Pasteur ; result: >160 µg/mL
C=C/C(C)=C/[C@@]1(C)SC(=O)C(C)=C1O ; endpoint: MIC ; strain or isolate: BCG (PMV261::KASB) ; result: 100 µg/mL
CCOC(=O)c1ccc(NC(=S)Nc2ccc3c(c2)C(C)=CC(C)(C)N3C)cc1 ; endpoint: MIC ; strain or isolate: BCG ; result: 20–40 µg/mL
O=c1[nH]c2ccccc2c(O)c1-c1ccccc1 ; endpoint: MIC90 ; method: luminescence ; strain or isolate: AN5 lux ; result: 7.2 µM
O=[N+]([O-])c1cn2c(n1)OCCC2 ; endpoint: MIC ; strain or isolate: rBCG-lux ; result: >50 µg/mL
CC(C)CCOc1ccc(NC(=S)Nc2ccc(OCCC(C)C)cc2)cc1 ; endpoint: MIC ; strain or isolate: BCG (PMV261::KASB) ; result: 0.25 µg/mL
CC(C)CCOc1ccc(NC(=S)Nc2ccc(Cc3ccccc3)cc2)cc1 ; endpoint: MIC ; strain or isolate: BCG ; result: 1.75 µg/mL
C/C=C/C/C=C/CCC(=O)[C@H]1O[C@H]1C(N)=O ; endpoint: MIC ; strain or isolate: BCG (PMV261::KASB) ; result: 0.2 µg/mL
C[C@]1(COc2ccc(N3CCC(Oc4ccc(OC(F)(F)F)cc4)CC3)cc2)Cn2cc([N+](=O)[O-])nc2O1 ; endpoint: MIC ; strain or isolate: BCG Montreal ; result: 0.006 µg/mL
COc1ccc2c(O)c(-c3ccccc3)c(=O)[nH]c2c1 ; endpoint: MIC90 ; method: luminescence ; strain or isolate: AN5 lux ; result: 9.5 µM
COC(=O)c1ccc(C(=O)Oc2ccc3c(c2)OC(C)(C)C=C3C)cc1 ; endpoint: MIC ; strain or isolate: BCG ; result: 2–4 µg/mL
COc1cc(CC(C)C(C)Cc2ccc3c(c2)OCO3)ccc1O ; endpoint: MIC ; method: resazurin ; strain or isolate: BCG ; result: 128 µM
NNC(=O)c1ccncc1 ; endpoint: MIC ; strain or isolate: BCG (PMV261) ; result: 0.06 µg/mL
CCCCOc1ccc(NC(=S)Nc2ccc(SCCC)cc2)cc1 ; endpoint: MIC ; strain or isolate: BCG ; result: 1.1 µg/mL
O=[N+]([O-])c1cn2c(n1)OCC(O)C2 ; endpoint: MIC ; strain or isolate: rBCG-lux ; result: >128 µg/mL

The last 2 rows once more:

| smiles | endpoint | method | strain or isolate | result |
|---|---|---|---|---|
| CCCCOc1ccc(NC(=S)Nc2ccc(SCCC)cc2)cc1 | MIC | - | BCG | 1.1 µg/mL |
| O=[N+]([O-])c1cn2c(n1)OCC(O)C2 | MIC | - | rBCG-lux | >128 µg/mL |

Two numbers with a dash give a range or band. Lines come from different laboratories, so protocols vary. ECn: concentration that inhibits the pathogen or its effect by n%. Blank or dashed fields: not listed here.